Here are results for four compounds from US7148243B2, “Antivirals” (Medivir AB, priority 1998, dated 2006).

This data set concerns HIV wild type. Type of data set: cell-based. Conditions: for SI (calculated therapeutic index): dose producing 50% toxicity in HIV-free cells divided by the ED50, initial data; for SI (calculated therapeutic index) 50% serum: 50% human serum, 50% toxicity dose in HIV-free cells divided by the ED50.

As for `CCC(=O)c1ccc(F)c(C2CC2NC(=O)Nc2ccc(C#N)cn2)c1O` (racemic) [Example 5, (±)N-[cis-2-(2-(6-fluoro-2-hydroxy-3-propionylphenyl)-cyclopropyl]-N′-(5-cyanopyrid-2-yl)-urea], the “SI (calculated therapeutic index)” value was >41 600.
`CCC(=O)c1ccc(F)c(C2CC2NC(=O)Nc2ccc(Cl)cn2)c1O` (racemic) [Prior art, (+/−)—N-(cis-2-(6-fluoro-2-hydroxy-3-propionylphenyl)-cyclopropyl)-N′-(5-chloropyridyl-2-yl)-urea, reference compound]: the “SI (calculated therapeutic index) 50% serum” value was 800 and the “SI (calculated therapeutic index)” value is listed as 5 900.
In the case of `CCC(=O)c1ccc(F)c([C@H]2C[C@H]2NC(=O)Nc2ccc(C#N)cn2)c1O` (stereo in doubt) [Example 6, (1R,2R)-N-(cis-2-(6-fluoro-2-hydroxy-3-propionylphenyl)-cyclopropyl)-N′-(5-cyanopyridy-2-yl)-urea], the “SI (calculated therapeutic index) 50% serum” value is on record as 8 830 and the “SI (calculated therapeutic index)” value is 22 500.
Regarding `CCC(=O)c1ccc(F)c([C@@H]2C[C@@H]2NC(=O)Nc2ccc(C#N)cn2)c1O` (stereo in doubt) [Example 8, (1 S,2S)-N-(cis-2-(6-fluoro-2-hydroxy-3-propionoylphenyl)-cyclopropyl)-N′-(5-cyanopyrid-2-yl)-urea], the “SI (calculated therapeutic index) 50% serum” value is recorded as 4 285 and the “SI (calculated therapeutic index)” value is 87 000.
